Compound potency records, mixed from different reports. Data source: NIAID ChemDB in PubChem.

All rows: tests on isolated targets

Rows are shuffled and stem from different studies. Fold resistance: result on the changed form divided by that on wild type. ICn is the concentration giving n% inhibition. Percent inhibition refers to the dose given; in toxicity tests it is the harm to the cells. An empty or dashed field is not shown.

SMILES,species,strain,changes,protein,method,endpoint,dose,result
CO[P@](=O)(c1cc(C)cc(/C=C/C#N)c1)c1c(C(N)=O)[nH]c2ccc(Cl)c(F)c12,HIV,,Y188L,Reverse transcriptase,,IC50,,1.25 µM
COC(=O)c1cc(C(O)(c2ccc(O)c(C(=O)OC)c2)c2ccc(O)c(C(=O)OC)c2)ccc1O,HIV,,,Integrase,substrate cleavage,IC50,,>100 µM
Cc1ccccc1C(=O)N[C@@H](Cc1ccccc1)[C@H](O)CN(CC(C)C)S(=O)(=O)c1ccc2ncsc2c1,HIV,,,Protease,fluorescence,IC50,,0.004 µM
O=C(O[C@@H]1Cc2c(O)cc(O)cc2O[C@@H]1c1ccc(O)c(O)c1)c1cc(O)c(O)c(O)c1,HIV-1,,,gp120 + CD4,fluorescence,inhibition,100 µM,0%
CC(C)Nc1cccnc1N1CCN(C(=O)c2cc3ccccc3[nH]2)CC1,HIV,,RT-V106A,Reverse transcriptase,nucleotide incorporation,IC50,,9.1 µM
CCCCCCCCCCCCCCCC(=O)N[C@H](C(=O)N[C@H](C(=O)N[C@@H](CO)C(=O)N[C@@H](Cc1ccc(O)cc1)C(=O)N[C@@H](CCC(=O)O)C(=O)N[C@@H](CC(C)C)C(=O)O)C(C)C)[C@@H](C)O,HIV,,,Protease,,IC50,,0.5 µM
Cc1cc(SC2=C(O)C[C@@](CCc3ccc(O)cc3)(C(C)C)OC2=O)c(C(C)(C)C)cc1CO,HIV-1,,PR-V82F,Protease,HPLC / absorbance,fold resistance,,1.1
CC[C@H]1C=CCC[C@@]2(C[C@@H]3CC[C@@H]4[C@H](C(=O)OCCCCCCCCCCCCCCCC(=O)N(CCC[NH3+])CCCC[NH3+])[C@]5(CCC[C@@H](C)O5)NC(=[N+]34)N2)O1,HIV-1,NL4-3,,Nef,ELISA,IC50,,<5 µM
CC(C)CN(C[C@@H](O)[C@H](Cc1ccccc1)NC(=O)OCc1ccccc1)S(=O)(=O)c1ccc2sc(N)nc2c1,HIV,,,Protease,fluorescence,IC50,,0.047 µM
Cc1cn([C@@H]2O[C@H](CO[Si](C)(C)C(C)(C)C)[C@@]3(OS(=O)(=O)C=C3N)[C@H]2O[Si](C)(C)C(C)(C)C)c(=O)[nH]c1=O,HIV,,RT-N137Y,Reverse transcriptase,nucleotide incorporation / radiometric,fold resistance,,0.26
COc1ccc2c(c1)N(C(=O)OC(C)C)[C@@H](CSC)C(=S)N2,HIV,,RT-D67N K70R T215F K219Q Y181C,Reverse transcriptase,RT activity,fold resistance,,4.5
O=C(O)C1=CC(=C(c2ccc(O)c(C(=O)O)c2)c2ccc(O)c(C(=O)O)c2)C=CC1=O,HIV,,,Integrase,substrate cleavage,IC50,,12 µM
CCCCCCCCC[C@@H]1C[C@@H]2CCC3=C(C(=O)O[C@H](C)CCCCC[C@@H]4C[C@@H]5CC[C@@H]6C[C@H](C)NC(=[N+]65)N4)[C@@H](C)NC(=[N+]32)N1,HIV-1,NL4-3,,Nef,ELISA,inhibition,5 µM,84.2%
CC(C)CN(C[C@@H](O)[C@H](Cc1ccccc1)NC(=O)OCc1ccccc1)S(=O)(=O)c1cccc2nc(N)sc12,HIV,,,Protease,fluorescence,IC50,,1 µM
NCC1O[C@H](O[C@H]2C(N)C[C@@H](N)C(O)[C@H]2O[C@@H]2O[C@H](Cn3cc(CNC(=O)[C@@H](N)Cc4cnc[nH]4)nn3)[C@H](O[C@H]3O[C@@H](CN)[C@@H](O)C(O)C3N)C2O)C(N)[C@@H](O)[C@@H]1O,HIV-1,,,Tat:TAR/LTR,RNase H / fluorescence,IC50,,0.683 µM
CC(C)[C@H](NC(=O)c1ccc2ccccc2n1)C(=O)N[C@@H](Cc1ccccc1)[C@H](O)CN1CC[C@@H](SCc2cccnc2)C[C@H]1C(=O)NC(C)(C)C,HIV,,PR-L23I V32I M46I I47V I54M A71V I84V,Protease,fluorescence,fold resistance,,6060
Cc1cccc(C)c1OCC(=O)N[C@@H](Cc1ccccc1)[C@H](O)CN1CC[C@@H](Sc2ccncc2)C[C@H]1C(=O)NC(C)(C)C,HIV-2,,,Protease,,IC50,,≤0.0023 µM
Cc1cc(SC2=C(O)C[C@@](CCc3ccc(O)cc3)(C(C)C)OC2=O)c(C(C)(C)C)cc1N,HIV,,,Protease,HPLC,inhibition,10 µM,5%
Cc1cn([C@H]2CC[C@@H](COP(=O)(O)OP(=O)(O)OP(=O)(O)O)O2)c(=O)[nH]c1=O,HIV-1,,RT-T139V,Reverse transcriptase,nucleotide incorporation / radiometric,fold resistance,,1
O=C1c2c(O)cc(O[C@@H]3C[C@@H](O)[C@H](O)[C@@H](CO)O3)cc2O[C@H](c2ccc(O)cc2)[C@H]1O,HIV-1,,,gp120,ELISA,inhibition,250 µg/mL,30%
CN(C)CCCNC(=O)c1cc(NC(=O)c2cc(NC(=O)c3cc(NC(=O)c4ccccc4C(=O)O)cn3C)cn2C)cn1C,HIV-2,,,Integrase,3′ processing,IC50,,>100 µM
C=CCOC(=O)C1=C(C)NC2=[N+]3[C@@H](CC[C@@H]13)C[C@@H](CCCCC[C@@H](C)OCc1ccccc1)N2,HIV-1,NL4-3,,Nef,ELISA,inhibition,5 µM,82.7%
Cc1cn([C@@H]2O[C@H](CO[Si](C)(C)C(C)(C)C)C3(OS(=O)(=O)C=C3N)[C@H]2O[Si](C)(C)C(C)(C)C)c(=O)n(C)c1=O,HIV,,RT-Y181C,Reverse transcriptase,nucleotide incorporation,IC50,,>750 µM
CC[C@H]1C=CCC[C@@]2(C[C@@H]3CC[C@H]4[C@H](C(=O)OCCCCCCCCCCCCCCCC(=O)N(CCC[NH3+])C[C@@H](O)CC[NH3+])[C@@]5(CCC[C@@H](C)O5)NC(=[N+]34)N2)O1,HIV-1,NL4-3,,Nef,ELISA,inhibition,5 µM,93.3%
O=C(O)C1=C[C@@H](O)[C@@H](O)[C@H](O)C1,HIV-1,,,RNase H,fluorescence,IC50,,>100 µM
Cc1cn([C@H]2C=C[C@@H](COP(=O)(O)OP(=O)(O)OP(=O)(O)O)O2)c(=O)[nH]c1=O,HIV-1,,RT-Q161L,Reverse transcriptase,,Ki,,0.046 µM
Cc1cc(SC2=C(O)C[C@@](CCc3ccc(N)cc3)(C(C)C)OC2=O)c(C(C)(C)C)cc1CO,HIV-1,,PR-V32I,Protease,HPLC / absorbance,fold resistance,,1.9
O=C(CO)N[C@@H]([C@@H](O)[C@H](O)[C@H](O)CO)[C@@H](O)C(=O)C(=O)O,HIV-1,MN,,gp120,,inhibition,200 µM,86.8%
CN(C)CCCNC(=O)c1cc(NC(=O)c2cc(NC(=O)c3cc(NC(=O)c4ccc(C(=O)Nc5cc(C(=O)Nc6cc(C(=O)Nc7cc(C(=O)NCCCN(C)C)n(C)c7)n(C)c6)n(C)c5)cc4)cn3C)cn2C)cn1C,HIV-2,,,Integrase,3′ processing,IC50,,0.27 µM
CC(C)[C@H](NC(=O)c1ccc2ccccc2n1)C(=O)N[C@H](CCN1CC[C@@H](SCc2ccccn2)C[C@H]1C(=O)NC(C)(C)C)Cc1ccccc1,HIV-2,,,Protease,,IC50,,≤0.0018 µM
O=C1C[C@@H](c2ccc(O)cc2)Oc2cc(O[C@@H]3C[C@@H](O)[C@H](O)[C@@H](CO)O3)cc(O)c21,HIV-1,,,gp120,ELISA,inhibition,80 µg/mL,77%
CCCCCCCCC[C@@H]1C[C@@H]2CC[C@H]3C(C(=O)OC(C)(C)C)=C(C)NC(=[N+]23)N1,HIV-1,NL4-3,,Nef,ELISA,inhibition,5 µM,96.5%
Cc1cccc(C)c1OCC(=O)N[C@@H](Cc1ccccc1)[C@H](OC(=O)CCC(=O)NCCC(=O)OC[C@H]1O[C@@H](n2cc(C)c(=O)[nH]c2=O)C[C@@H]1N=[N+]=[N-])C(=O)N1CSC(C)(C)[C@H]1C(=O)NC(C)(C)C,HIV-1,,,Protease + Reverse transcriptase,,IC50,,>5 µM
CCCCNC(=O)[C@H](N)CC[C@@H]1O[C@H](CO)[C@H](O)[C@H](O)[C@H]1O,HIV-1,,,gp120,ELISA,inhibition,1000 µg/mL,34%
Cc1c(N)cccc1C(=O)N[C@@H](Cc1ccccc1)[C@H](O)CN(CC(C)C)S(=O)(=O)c1ccc2ncsc2c1,HIV,,,Protease,fluorescence,IC50,,0.006 µM
CN(C)CCCNC(=O)c1cc(NC(=O)c2cc(NC(=O)c3cc(NC(=O)c4ccc(C(=O)Nc5cc(C(=O)Nc6cc(C(=O)Nc7cc(C(=O)NCCCN(C)C)n(C)c7)n(C)c6)n(C)c5)nc4)cn3C)cn2C)cn1C,HIV-2,,,Integrase,3′ processing,IC50,,0.37 µM
Cc1c(Sc2ccccc2)n(COCCO)c(=O)[nH]c1=O,HIV,,RT-K103N Y181I,Reverse transcriptase,,fold resistance,,>10
Cc1cn([C@H]2C=C[C@@H](COP(=O)(O)OP(=O)(O)OP(=O)(O)O)O2)c(=O)[nH]c1=O,HIV,,RT-N137D,Reverse transcriptase,nucleotide incorporation / radiometric,fold resistance,,8.4
Cc1cc(SC2=C(O)CC(CCc3ccc(O)cc3)(C3CCCCC3)OC2=O)c(C(C)(C)C)cc1CO,HIV-1,,PR-V32I,Protease,HPLC / absorbance,fold resistance,,17
CC(C)=CCOc1cc(NC(=S)c2ccoc2C)ccc1Cl,HIV,,RT-N137E,Reverse transcriptase,nucleotide incorporation / radiometric,IC50,,0.032 µM
CC(C)(C)OC(=O)NCCC(=O)Nc1cccc(C(c2c(O)c3c(oc2=O)CCCCCC3)C2CC2)c1,HIV-2,,,Protease,,Ki,,0.016 µM
CC(C)CN(C[C@@H](O)[C@H](Cc1ccccc1)NC(=O)[C@@H](C)CS(C)(=O)=O)S(=O)(=O)c1ccc2ncsc2c1,HIV,,,Protease,fluorescence,IC50,,0.002 µM
C=C(C)[C@@H]1CC[C@]2(C(=O)O)CC[C@]3(C)[C@H](CC[C@@H]4[C@@]5(C)CC[C@H](O)C(C)(C)[C@@H]5CC[C@]43C)[C@@H]12,HIV-1,,,RNase H,fluorescence,IC50,,2 µM
CC(C)[C@H](NC(=O)c1ccc2ccccc2n1)C(=O)N[C@H](CCN1CC[C@@H](SCc2ccncc2)C[C@H]1C(=O)NC(C)(C)C)Cc1ccccc1,HIV-2,,,Protease,,IC50,,0.01 µM
Cc1cccc(C)c1OCC(=O)N[C@@H](Cc1ccccc1)[C@H](O)CN1CC[C@@H](Sc2ccncc2)C[C@H]1C(=O)NC(C)(C)C,HIV,,PR-V32I A71V,Protease,fluorescence,fold resistance,,10.9
Cc1cccc(C)c1OCC(=O)N[C@@H](Cc1ccccc1)[C@H](OC(=O)CCCC(=O)NCC(=O)OC[C@H]1O[C@@H](n2cc(C)c(=O)[nH]c2=O)C[C@@H]1N=[N+]=[N-])C(=O)N1CSC(C)(C)[C@H]1C(=O)NC(C)(C)C,HIV-1,,,Protease + Reverse transcriptase,,IC50,,<5 µM
O=C1N(Cc2ccc(CO)cc2)[C@H](COc2ccccc2)[C@H](O)[C@@H](O)[C@@H](COc2ccccc2)N1Cc1ccc(CO)cc1,HIV,,PR-V82A,Protease,fluorescence,Ki,,0.00024 µM
O=C1c2c(O)cc(O)cc2O[C@H](c2ccc(O)cc2)[C@H]1O,HIV-1,,,gp120,ELISA,inhibition,20 µg/mL,72%
Nc1nc2c(ncn2[C@H]2CC[C@@H](COP(=O)(O)OP(=O)(O)OP(=O)(O)O)O2)c(=O)[nH]1,HIV,,RT-Y181C,Reverse transcriptase,nucleotide incorporation,fold resistance,,0.375
O=C(NCCc1ccc(O)c(O)c1)c1cc2cc(O)c(O)cc2[nH]1,HIV-1,,Reverse transcriptase L503F,RNase H + Reverse transcriptase,RNase H / fluorescence,IC50,,65 µM
CC(C)CN(C[C@@H](O)[C@H](Cc1ccccc1)NC(=O)OC1CCOC1)S(=O)(=O)c1ccc2ncsc2c1,HIV,,,Protease,fluorescence,IC50,,0.004 µM
CN(C)CCCNC(=O)c1cc(NC(=O)c2cc(NC(=O)c3cc(NC(=O)c4ncccc4C(=O)O)cn3C)cn2C)cn1C,HIV-2,,,Integrase,3′ processing,IC50,,>100 µM

3 of the rows above, restated:

{"SMILES": "Cc1cccc(C)c1OCC(=O)N[C@@H](Cc1ccccc1)[C@H](OC(=O)CCC(=O)NCCC(=O)OC[C@H]1O[C@@H](n2cc(C)c(=O)[nH]c2=O)C[C@@H]1N=[N+]=[N-])C(=O)N1CSC(C)(C)[C@H]1C(=O)NC(C)(C)C", "species": "HIV-1", "protein": "Protease + Reverse transcriptase", "endpoint": "IC50", "result": ">5 µM"}
{"SMILES": "CO[P@](=O)(c1cc(C)cc(/C=C/C#N)c1)c1c(C(N)=O)[nH]c2ccc(Cl)c(F)c12", "species": "HIV", "changes": "Y188L", "protein": "Reverse transcriptase", "endpoint": "IC50", "result": "1.25 µM"}
{"SMILES": "Cc1cn([C@H]2C=C[C@@H](COP(=O)(O)OP(=O)(O)OP(=O)(O)O)O2)c(=O)[nH]c1=O", "species": "HIV", "changes": "RT-N137D", "protein": "Reverse transcriptase", "method": "nucleotide incorporation / radiometric", "endpoint": "fold resistance", "result": "8.4"}